PubChem BioAssay AID1224833 | University of Georgia, 2016
This is an unselected part of about 12,000 deposited reagents. Of all reagents, about 5,600 (46%) are marked active. 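Active calls cover z-scores past 1 in both directions, so they include lowered as well as raised rotavirus replication.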

Test: 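Human genes whose knock-down alters rotavirus replication in monkey cells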 (primary screen)
Cells: monkey MA104 kidney cells
Reagents: siRNA pool against human genes, 50 nM
Timing: 48 h knock-down before infection; read 24 h after infection
Conditions: infection with rotavirus strain RV3 two days after transfection; infectious dose for this stage not given
Measurement: 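Rotavirus antigen per well by fluorescent immunoassay, normalised to non-targeting control wells on each plate and given as a standard z-score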
Scale: z-score vs non-targeting control: higher = more rotavirus replication than with non-targeting control
Call rule: In these data the active calls have z-score vs non-targeting control at about -1 or lower, or at about 1 or higher
Meaning of the calls: active = z-score beyond 1 either way; inactive = z-score within 1 of zero

| Gene | z-score vs non-targeting control | Outcome |
| --- | --- | --- |
| TAF1B | 1.55 | active |
| PCDHA10 | -1.01 | active |
| LSM7 | 0.227 | inactive |
| GCSAML | -2.36 | active |
| RALGAPA2 | 1.02 | active |
| ARPP19 | -5.55 | active |
| BAHCC1 | -0.765 | inactive |
| C1orf115 | -1.83 | active |
| ANK1 | 0.798 | inactive |
| DPM3 | -0.399 | inactive |
| NPTX2 | -0.235 | inactive |
| PRSS45P | -0.935 | inactive |
| NAA20 | 1.81 | active |
| WNT9B | -0.91 | inactive |
| ARL5A | 1.14 | active |
| STEAP3 | -0.882 | inactive |
| HAPLN1 | -1.17 | active |
| ZNF524 | -0.887 | inactive |
| UNC5A | -1.59 | active |
| GTF2F2 | 1.71 | active |
| CYBB | 1.12 | active |
| LAT | -0.735 | inactive |
| FYRD1 | -2.33 | active |
| IFT22 | 0.19 | inactive |
| SPATA6 | -0.601 | inactive |
| MBD4 | 2.05 | active |
| BCAP29 | -2.55 | active |
| FGF18 | 0.525 | inactive |
| RELB | -0.619 | inactive |
| MAD2L1BP | 0.14 | inactive |
| PLXDC1 | -1.39 | active |
| RWDD4 | -0.542 | inactive |
| LILRA6 | 0.449 | inactive |
| SIRAL1 | 0.788 | inactive |
| NEUROD6 | 1.22 | active |
| ERI3 | -0.667 | inactive |
| MFN1 | -0.68 | inactive |
| CA3 | -2 | active |
| HPRT1 | 1.66 | active |
| CCNC | 1.41 | active |
| SNX19 | -0.596 | inactive |
| TSACC | -2.14 | active |
| PCDHGA8 | 0.886 | inactive |
| GTF3C4 | -1.27 | active |
| BLVRA | -3.12 | active |
| CCL11 | -0.938 | inactive |
| UCN2 | -0.798 | inactive |
| SUPT20H | -1.32 | active |
| HARS1 | 1.25 | active |
| TNFSF12 | 0.636 | inactive |
| ECI2 | -2.08 | active |
| KRT7 | 0.406 | inactive |
| GRHL2 | 0.0044 | inactive |
| BAD | -1.2 | active |
| DDO | 1.88 | active |
| COL20A1 | 0.519 | inactive |
| C19orf12 | 0.545 | inactive |
| SFRP4 | -1.4 | active |
| DNAJC16 | -0.895 | inactive |
| GKAP1 | -1.22 | active |
| FUT7 | -2.48 | active |
| OR8D2 | -0.206 | inactive |
| PIP | -0.153 | inactive |
| LAMB4 | -0.168 | inactive |
| ESPNL | -0.997 | inactive |
| CELF2 | -0.965 | inactive |
| PDGFB | 0.163 | inactive |
| INTS13 | 2.28 | active |
| BCL2L2 | 2.88 | active |
| UGT2B28 | -2.07 | active |
| DYNLT2B | -1.71 | active |
| LSR | -1.06 | active |
| LURAP1L | -0.622 | inactive |
| LRRC10 | -0.983 | inactive |
| GPALPP1 | 0.0354 | inactive |
| PLCD3 | 1.66 | active |
| COL23A1 | 1.13 | active |
| GPR3 | -0.542 | inactive |
| COL9A3 | -0.315 | inactive |
| LRATD2 | -0.0257 | inactive |
| OR11H1 | -0.802 | inactive |
| CFAP61 | 0.285 | inactive |
| OR1A1 | -0.792 | inactive |
| PCCB | -1.04 | active |
| WAC | -1.53 | active |
| ZNRF4 | -2.91 | active |
| PDE6G | 0.568 | inactive |
| PRRX2 | -0.736 | inactive |
| CLASRP | -0.63 | inactive |
| HOGA1 | -0.0799 | inactive |
| RAB3IL1 | 0.713 | inactive |
| IFI27 | -1.26 | active |
| H2AC7 | -3.39 | active |
| TREM2 | 0.988 | inactive |
| PSMD10 | -0.875 | inactive |
| PDE7A | -0.539 | inactive |
| SDCCAG8 | -0.988 | inactive |
| CD99 | 0.474 | inactive |
| ZNF530 | -0.694 | inactive |
| SMAP1 | -1.1 | active |
| OR56A4 | -1.95 | active |
| FOXI2 | 2.94 | active |
| SACK1C | 0.209 | inactive |
| FMO2 | -1.16 | active |
| NAXD | -1.04 | active |
| TMEM121B | -0.251 | inactive |
| NHP2 | -0.964 | inactive |
| LCE1E | -0.821 | inactive |
| SCGN | 0.832 | inactive |
| RAX | -0.619 | inactive |

Not a retest: 8 of the entries above.
| Gene | z-score vs non-targeting control | Outcome |
| --- | --- | --- |
| SFRP4 | -1.4 | active |
| DNAJC16 | -0.895 | inactive |
| GKAP1 | -1.22 | active |
| FUT7 | -2.48 | active |
| OR8D2 | -0.206 | inactive |
| PIP | -0.153 | inactive |
| LAMB4 | -0.168 | inactive |
| ESPNL | -0.997 | inactive |
